A mixed list of measured activities; the numbers were collected in NIAID ChemDB.

Common to all: host cell toxicity; cell line: VERO; read-out: CC50

a–b is a range or a potency band. CCn: concentration that lowers growth or viability of the cells by n%. Lines come from different laboratories, so protocols vary.

structure | result
CCOC(=O)C1=C(C)NC(=S)NC1c1cn(-c2ccccc2)nc1-c1ccc([N+](=O)[O-])cc1 | >10 µg/mL
Nc1ccn(CC[C@@H](CO)OCP(=O)(O)O)c(=O)n1 | >100 µg/mL
Cc1c(CN2CCN(C)CC2)cc(-c2cccc3ccccc23)n1-c1ccccc1 | 4 µg/mL
Cc1c(CN2CCSCC2)cc(-c2ccccc2)n1-c1ccccc1F | 8 µg/mL
Cc1c(CN2CCSCC2)cc(-c2ccccc2)n1-c1ccccc1F | 8 µg/mL
CC(=O)OC[C@H]1O[C@H](O[C@H]2O[C@@H](COC(=O)/C=C/c3ccccc3)[C@H](O)C2(COC(C)=O)OC(=O)/C=C/c2ccccc2)[C@H](OC(C)=O)[C@@H](O)[C@@H]1OC(C)=O | >100 µg/mL
Cc1ccn2c(C(=O)NCc3ccc4c(c3)CCO4)c(C(F)(F)F)nc2c1 | >32 µM
O=C(Nc1ccccc1F)c1cccc2[nH]c(-c3cccnc3)nc12 | 37 µg/mL
Cc1c(CN2CCN(C)CC2)cc(-c2ccccc2F)n1-c1ccccc1 | 2 µg/mL
CO[C@H](CO)[C@@H](O)CCn1cnc2c(N)ncnc21 | >400 µg/mL
C/C(=N\NC(=O)c1ccncc1)c1cccc(CN(Cc2ccccc2)Cc2ccccc2)c1O | >13.46 µM
NC1=CC(=O)c2nc3ccccc3c3ccnc1c23 | 23.5 µM
O=CNCCCC[C@H](NC(=O)[C@H]1COC(c2ccccc2O)=N1)C(=O)O | >64 µg/mL
Cc1cn2c(C(=O)NCc3ccc(N4CCN(c5ccc(S(F)(F)(F)(F)F)cc5)CC4)cc3)c(C)nc2s1 | 2–10 µM
Cc1c(CN2CCSCC2)cc(-c2ccc(F)cc2)n1-c1ccc(Cl)cc1 | 8 µg/mL
C=CCc1ccc(O)c(OC)c1 | 250 µg/mL
Cc1ccn2c(C(=O)NCc3ccc(N4CCN(c5ccc(C(F)(F)F)cn5)CC4)c(F)c3)c(C)nc2c1 | >32 µM
C/C(=N\NC(=O)c1ccncc1)c1cccc(CN2CCN(Cc3ccccc3)CC2)c1O | >14.09 µM
CCCCCCCCCC(=O)Nc1nc(N)nc2c1ncn2[C@H]1CO[C@@H](COP(=O)(N[C@@H](C)C(=O)OCC)Oc2ccccc2)O1 | 13 µM
Cc1c(CN2CCN(C)CC2)cc(-c2ccccc2Cl)n1-c1ccccc1 | 4 µg/mL
O=C(O)CC1S/C(=N\N=C\c2ccc(Cl)cc2Cl)N(c2ccccc2)C1=O | 2000 µM
COc1ccc2c(N/N=C/c3ccc(OC)c4ccccc34)ccnc2c1 | 7.2 µg/mL
O=CNCCCC[C@@H](NC(=O)[C@H]1COC(c2ccccc2O)=N1)C(=O)O | >64 µg/mL
Cc1c(CN2CCN(C)CC2)cc(-c2ccccc2)n1-c1ccc(F)cc1 | 4 µg/mL
CO[C@H](CO)[C@@H](O)CCn1ccc(N)nc1=O | >400 µg/mL
Cc1c(CN2CCSCC2)cc(-c2cccc3ccccc23)n1-c1ccccc1 | 4 µg/mL
CCOC(=O)[C@H](C)NP(=O)(OC[C@@H]1OC[C@H](n2cnc3c(NC(C)=O)nc(N)nc32)O1)Oc1ccccc1 | >100 µM
C/C(=N\NC(=O)c1ccncc1)c1cccc(CN2CCN(C)CC2)c1O | >17.2 µM
Cc1c(CN2CCSCC2)cc(-c2ccccc2)n1-c1ccc(F)cc1 | 8 µg/mL
CCOC(=O)[C@H](C)NP(=O)(OC[C@@H]1OC[C@H](n2cnc3c(N)nc(N)nc32)O1)Oc1ccccc1 | >100 µM
CCOC(=O)C1=C(C)NC(=O)NC1c1cn(-c2ccccc2)nc1-c1ccc([N+](=O)[O-])cc1 | >10 µg/mL
CCCCCCCC/C=C\CCCCCCCC(=O)Nc1nc(N)nc2c1ncn2[C@H]1CO[C@@H](COP(=O)(N[C@@H](C)C(=O)OCC)Oc2ccccc2)O1 | 13 µM
CC(C)(C)OC(=O)NCCNC1=CC(=O)c2nc3ccccc3c3ccnc1c23 | >25 µM
Nc1ncnc2c1ncn2CC[C@H](O)CCO | >400 µg/mL
COC(=O)C1=C(C)NC(=O)NC1c1cn(-c2ccccc2)nc1-c1ccc(Br)cc1 | >10 µg/mL
CCCCCCCCCCCCCC(=O)Nc1nc(N)nc2c1ncn2[C@H]1CO[C@@H](COP(=O)(N[C@@H](C)C(=O)OCC)Oc2ccccc2)O1 | 13 µM
COc1ccc(CCNC(=O)c2c(C)n([O-])c3ccc(C(F)(F)F)cc3[n+]2=O)cc1 | >100 µg/mL
C/C(=N\NC(=O)c1ccncc1)c1cccc(CN2CCN(c3ccccn3)CC2)c1O | >14.52 µM
Cc1c(CN2CCN(C)CC2)cc(-c2ccccc2)n1-c1cccc2ccccc12 | 2 µg/mL
O=C(NCN1CCN(c2cc3c(cc2F)c(=O)c(C(=O)O)cn3C2CC2)CC1)c1cnccn1 | >62.5 µg/mL
CCCCOc1ccc2nc(C)cc(NN)c2c1 | 5.94 µg/mL
Nc1ncnc2c1ncn2C1OC(CO)C=C1F | >100 µM
CCOC(=O)CCSC1=CC(=O)c2nc3ccccc3c3ccnc1c23 | 5.8 µM
O=c1[nH]c(=O)n([C@H]2C[C@H](O)[C@@H](COP3(=O)OCc4c(ccc5ccccc45)O3)O2)cc1/C=C/Br | 44.8 µg/mL
Cc1ccn2c(C(=O)NCc3ccc(N(C)C)cc3)c(C)nc2c1 | >32 µM
Nc1nc2c(ncn2COC(CO)CO)c(=O)[nH]1 | >100 µg/mL
CO[C@H](CO)[C@@H](O)CCn1cc(C)c(=O)[nH]c1=O | >400 µg/mL
Cc1ccccc1-n1c(-c2ccc(F)cc2)cc(CN2CCN(C)CC2)c1C | 2 µg/mL
Cc1ccc(SC2=CC(=O)c3nc4ccccc4c(C)c3C2=O)cc1 | 23.8 µM
O=C(O)CC1S/C(=N\N=C\c2ccc(Cl)cc2)N(c2ccccc2)C1=O | 2000 µM
COc1cc2oc(-c3ccccc3)cc(=O)c2c(OC)c1OC | 263 µg/mL
Cc1ccccc1-c1cc(CN2CCN(C)CC2)c(C)n1-c1ccc(F)cc1 | 2 µg/mL
CCCCCCCCSC1=CC(=O)c2nc3ccccc3c(C)c2C1=O | 4.9 µM
Cc1ccccc1NC(=O)c1cccc2[nH]c(-c3ccncc3)nc12 | 27.8 µg/mL
Cc1c(CN2CCSCC2)cc(-c2ccccc2)n1-c1ccccc1 | 32 µg/mL
COC(=O)[C@H](C)NP(=O)(OCCOCn1cnc2c(=O)[nH]c(N)nc21)Oc1ccccc1 | >500 µM
CCn1cc(C(=O)O)c(=O)c2cc(F)c(N3CCN(CNC(=O)c4cnccn4)CC3)cc21 | >62.5 µg/mL
CCOc1ccc2c(N/N=C/c3ccc(OC)c4ccccc34)ccnc2c1 | <4.2 µg/mL
C/C(=N\NC(=O)c1ccncc1)c1cccc(CN(C)C)c1O | >20 µM
Cc1c(CN2CCSCC2)cc(-c2ccccc2Cl)n1-c1ccccc1 | 2 µg/mL
COc1cc(/C=N/N=C2\SC(CC(=O)O)C(=O)N2c2ccccc2)ccc1O | 100 µM
Cc1cccc(-n2c(-c3ccc(F)cc3)cc(CN3CCSCC3)c2C)c1 | 8 µg/mL
O=C(Nc1ccccc1O)c1cccc2[nH]c(-c3ccncc3)nc12 | 18.5 µg/mL
COC(=O)C1=C(C)NC(=O)NC1c1cn(-c2ccccc2)nc1-c1ccc(C)cc1 | >10 µg/mL
C/C(=N\NC(=O)c1ccncc1)c1cccc(CN2CCOCC2)c1O | >17.63 µM
COc1cc(/C=N/N=C2\SC(CC(=O)O)C(=O)N2c2ccccc2)cc(OC)c1OC | 2000 µM
O=C(NCN1CCN(c2ccc(C(F)(F)F)cc2)CC1)c1cnccn1 | >62.5 µg/mL
CCOC(=O)CCSC1=CC(=O)c2nc3ccccc3c(C)c2C1=O | 15.2 µM
O=c1[nH]c(=O)n([C@H]2C[C@H](O)[C@@H](COP3(=O)OCc4cccc(-c5ccccc5)c4O3)O2)cc1/C=C/Br | 32.9 µg/mL
Cc1ccn2c(C(=O)NCc3ccc(NCCOCCN)c(F)c3)c(C)nc2c1 | >32 µM
C/C(=N\NC(=O)c1ccncc1)c1cccc(CN2CCNCC2)c1O | >17.68 µM
CCSC1=CC(=O)c2nc3ccccc3c3ccnc1c23 | 6.8 µM
COc1ccc(/C=N/Nc2cc(C)nc3ccc(F)cc23)c2ccccc12 | 1.9 µg/mL
C[C@H]1/C=C/[C@@]2(C)CC[C@@H](C(C)(C)O)[C@@H]2[C@@H](O)C[C@](C)(O)/C=C/C1 | 184 µM
COc1ccc(/C=N/Nc2ccnc3cc(Cl)ccc23)c2ccccc12 | 3.4 µg/mL
O=c1[nH]c(=O)n([C@H]2C[C@H](O)[C@@H](COP3(=O)OCc4ccc5ccccc5c4O3)O2)cc1/C=C/Br | 16.3 µg/mL
O=C(O)CC1S/C(=N\N=C\c2ccccc2F)N(c2ccccc2)C1=O | 2000 µM